## HIV-1 NL4-3 point mutations in Nef: replication capacity

Values reported by Al-Mawsawi et al. 2014 (doi:10.1186/s12977-014-0124-6).

Protein: Nef of HIV-1 NL4-3, numbered from its first residue.
From base 9076 on, changes also alter the 3' U3.
Effects on overlapping genes or RNA elements are not listed.

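Random point mutant libraries of HIV-1 NL4-3, one for each of seven fragments, were passaged in CEM T lymphocytes. The RC index is the frequency of a change after passage round 2 divided by its frequency in the plasmid library.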

A higher RC index is a better tolerated change; approximate classes are lethal up to 0.1, attenuated to 0.2, tolerated above.
Substitutions are written as wild-type residue, site number, new residue.
Input reads are the counts in the plasmid library.
An index over 1, which the authors read as above wild type, was rare (1.9% of all changes in the genome).

{"change": "G2D", "base": "G8791A", "input reads": "341", "RC index": 0.321}
{"change": "G3R", "base": "G8793C", "input reads": "38", "RC index": 0.109}
{"change": "W5R", "base": "T8799A", "input reads": "394", "RC index": 0.285}
{"change": "S6T", "base": "T8802A", "input reads": "279", "RC index": 0.174}
{"change": "S8R", "base": "A8808C", "input reads": "106", "RC index": 0}
{"change": "S9T", "base": "G8812C", "input reads": "67", "RC index": 0.124}
{"change": "E18V", "base": "A8839T", "input reads": "204", "RC index": 0.115}
{"change": "E18D", "base": "A8840C", "input reads": "78", "RC index": 0.0602}
{"change": "A27S", "base": "G8865T", "input reads": "101", "RC index": 0.170}
{"change": "G29W", "base": "G8871T", "input reads": "38", "RC index": 0.659}
{"change": "K39I", "base": "A8902T", "input reads": "111", "RC index": 0.394}
{"change": "S46R", "base": "C8924A", "input reads": "102", "RC index": 0.290}
{"change": "E59G", "base": "A8962G", "input reads": "240", "RC index": 0.782}
{"change": "A60S", "base": "G8964T", "input reads": "198", "RC index": 0.933}
{"change": "E63G", "base": "A8974G", "input reads": "256", "RC index": 0.501}
{"change": "G67C", "base": "G8985T", "input reads": "188", "RC index": 0.825}
{"change": "G67D", "base": "G8986A", "input reads": "227", "RC index": 0.684}
{"change": "F68V", "base": "T8988G", "input reads": "109", "RC index": 0.582}
{"change": "F68S", "base": "T8989C", "input reads": "310", "RC index": 0.464}
{"change": "F68L", "base": "T8990A", "input reads": "204", "RC index": 0.429}
{"change": "L76V", "base": "T9012G", "input reads": "84", "RC index": 0.722}
{"change": "T80S", "base": "A9024T", "input reads": "346", "RC index": 0.567}
{"change": "A83G", "base": "C9034G", "input reads": "76", "RC index": 0.557}
{"change": "H89R", "base": "A9052G", "input reads": "370", "RC index": 0.379}
{"change": "L97M", "base": "C9075A", "input reads": "185", "RC index": 0.0936}
{"change": "E98D", "base": "A9080C", "input reads": "93", "RC index": 0.455}
{"change": "G99V", "base": "G9082T", "input reads": "351", "RC index": 0.236}
{"change": "I109V", "base": "A9111G", "input reads": "179", "RC index": 0.688}
{"change": "L110F", "base": "C9114T", "input reads": "160", "RC index": 0.385}
{"change": "D111V", "base": "A9118T", "input reads": "554", "RC index": 0.542}
{"change": "D111E", "base": "T9119A", "input reads": "264", "RC index": 0.772}
{"change": "I114M", "base": "C9128G", "input reads": "52", "RC index": 0.777}
{"change": "Y115H", "base": "T9129C", "input reads": "349", "RC index": 1.28}
{"change": "H116Q", "base": "C9134A", "input reads": "55", "RC index": 0.874}
{"change": "Q118L", "base": "A9139T", "input reads": "290", "RC index": 0.729}
{"change": "G119C", "base": "G9141T", "input reads": "484", "RC index": 0.568}
{"change": "Y127H", "base": "T9165C", "input reads": "355", "RC index": 0.634}
{"change": "T128R", "base": "C9169G", "input reads": "170", "RC index": 0.373}
{"change": "P129S", "base": "C9171T", "input reads": "441", "RC index": 1.75}
{"change": "R134I", "base": "G9187T", "input reads": "250", "RC index": 0.589}
{"change": "F139Y", "base": "T9202A", "input reads": "307", "RC index": 0.641}
{"change": "G140R", "base": "G9204C", "input reads": "75", "RC index": 0.626}
{"change": "W141R", "base": "T9207C", "input reads": "195", "RC index": 0.441}
{"change": "K144T", "base": "A9217C", "input reads": "99", "RC index": 0.671}
{"change": "P147R", "base": "C9226G", "input reads": "60", "RC index": 0.804}
{"change": "D151Y", "base": "G9237T", "input reads": "164", "RC index": 0.580}
{"change": "N157H", "base": "A9255C", "input reads": "379", "RC index": 0.884}
{"change": "N157S", "base": "A9256G", "input reads": "303", "RC index": 0.976}
{"change": "G159V", "base": "G9262T", "input reads": "89", "RC index": 0.791}
{"change": "N161S", "base": "A9268G", "input reads": "245", "RC index": 0.723}
{"change": "L165S", "base": "T9280C", "input reads": "264", "RC index": 0.666}
{"change": "P176A", "base": "C9312G", "input reads": "57", "RC index": 0.160}
{"change": "E177D", "base": "G9317T", "input reads": "159", "RC index": 0.336}
{"change": "E179V", "base": "A9322T", "input reads": "265", "RC index": 0.226}
{"change": "W183R", "base": "T9333A", "input reads": "386", "RC index": 0.542}
{"change": "A195D", "base": "C9370A", "input reads": "98", "RC index": 0.603}
{"change": "E201D", "base": "G9389C", "input reads": "144", "RC index": 0.575}

The opening 6 entries, copied out:

| change | base | input reads | RC index |
|---|---|---|---|
| G2D | G8791A | 341 | 0.321 |
| G3R | G8793C | 38 | 0.109 |
| W5R | T8799A | 394 | 0.285 |
| S6T | T8802A | 279 | 0.174 |
| S8R | A8808C | 106 | 0 |
| S9T | G8812C | 67 | 0.124 |

Nucleotide positions follow pNL4-3.
Since each clone held several changes (about five per kb), neutral changes can read low.